Pooled drug test results. Numbers come from NIAID ChemDB, via PubChem.

All rows: host cell toxicity; cells: MT-4; endpoint: CC50

Neighbouring rows are from separate reports.

structure,method,value
Cc1c(C(C)CC2CCCCC2)nc(SCC(=O)c2ccc(O)cc2)[nH]c1=O,MTT,24 µM
C1CCNCCCN(CCCN2CCCNCCCCNCCCNCCCNCCCNCCCCNCCC2)CCCNCCCCNCCCNCCCNCCCNC1,,228 µM
COc1ccc(C(=O)CSc2nc(C(C)CC3CCCCC3)c(C)c(=O)[nH]2)cc1,MTT,43 µM
O=C(CCNC(=O)C(=O)/C=C(\O)c1cccn1Cc1ccc(F)cc1)OC[C@@H]1C=C[C@H](n2ccc(=O)[nH]c2=O)O1,MTT,>10 µM
CCn1cc(C(=O)O)c(=O)c2cc(I)c(Oc3ccnc(Nc4ccc(C#N)cc4)n3)cc21,MTT,12.96 µM
C#Cc1ccc(Nc2nccc(Oc3c(C)cc(-c4cn(CCC(=O)OC)nn4)cc3C)n2)cc1,MTT,23.76 µM
C1CCNCCCNCCCNCCCN(CCCN2CCCNCCCNCCC2)CCCNCCCNCCCNC1,,127 µM
O=S(=O)(O)OCC1OC(OC2C(COS(=O)(=O)O)OC(O)C(O)C2OS(=O)(=O)O)C(OS(=O)(=O)O)C(O)C1OC1OC(COS(=O)(=O)O)C(OC2OC(COS(=O)(=O)O)C(OC3OC(COS(=O)(=O)O)C(OC4OC(COS(=O)(=O)O)C(OS(=O)(=O)O)C(OS(=O)(=O)O)C4O)C(OS(=O)(=O)O)C3O)C(O)C2OS(=O)(=O)O)C(OS(=O)(=O)O)C1O,,>1000 µg/mL
Cc1cn([C@H]2C=C[C@@H](COC(=O)CCNC(=O)C(=O)/C=C(\O)c3cc(OCc4ccccc4)cc(OCc4ccccc4)c3)O2)c(=O)[nH]c1=O,MTT,>10 µM
C1CCNCCCN(CCC[N+]2(CCCN3CCCNCCCCNCCCNCCCNCCCNCCCCNCCC3)CCCNCCCCNCCCNCCCNCCCNCCCCNCCC2)CCCNCCCCNCCCNCCCNCCCNC1,,6.9 µM
Cc1cn([C@H]2C[C@H](N=[N+]=[N-])[C@@H](CO)O2)c(=O)[nH]c1=O,MTT,8.5 µM
CO[C@@H]1C=C[C@@]23c4cc5c(cc4C(=O)O[C@H]2CN(C)[C@H]3C1)OCO5,MTT,7.5 µg/mL
CCc1cn([C@@H]2O[C@H](CO[Si](C)(C)C(C)(C)C)C3(OS(=O)(=O)C=C3N)[C@H]2O[Si](C)(C)C(C)(C)C)c(=O)[nH]c1=O,,5.5 µM
C1CCNCCCNCCCNCCCN(CCC[N+]2(CCCN3CCCNCCCNCCCNCCCCNCCCNCCCNCCC3)CCCNCCCNCCCNCCCCNCCCNCCCNCCC2)CCCNCCCNCCCNC1,,8.6 µM
CC1(C)C=Cc2cc(C(=O)CC(=O)c3ccc(O)cc3)c(O)cc2O1,,27 µg/mL
C#Cc1ccc(Nc2nccc(Oc3c(C)cc(-c4cn(-c5cccc(C(=O)OC)c5)nn4)cc3C)n2)cc1,MTT,>242 µM
CCCCCCCCCCCCOC1OC(COS(=O)(=O)O)C(OC2OC(COS(=O)(=O)O)C(OC3OC(COS(=O)(=O)O)C(OC4OC(COS(=O)(=O)O)C(OC5OC(COS(=O)(=O)O)C(OC6OC(COS(=O)(=O)O)C(OS(=O)(=O)O)C(OS(=O)(=O)O)C6O)C(OS(=O)(=O)O)C5OS(=O)(=O)O)C(O)C4OS(=O)(=O)O)C(OS(=O)(=O)O)C3O)C(OS(=O)(=O)O)C2O)C(O)C1OS(=O)(=O)O,,990 µg/mL
CC(C)[C@H](NC(=O)OCc1ccccn1)C(=O)N[C@@H](Cc1ccccc1)C(=O)C(F)(F)CCc1ccccc1,,21 µM
C[C@@H]1O[C@@H](Oc2c(-c3ccc(O)cc3)oc3cc(O)cc(O)c3c2=O)[C@H](O)[C@H](O)[C@H]1O,,>100 µg/mL
C#Cc1ccc(Nc2nccc(Oc3c(C)cc(-c4cn(-c5ccc(C(=O)OC)cc5)nn4)cc3C)n2)cc1,MTT,>242 µM
C1CCNCCCNCCCN(CCCN2CCCNCCCNCCC2)CCCNCCCNC1,,493 µM
Cc1cn([C@H]2C[C@H](N=[N+]=[N-])[C@@H](CO)O2)c(=O)[nH]c1=O,MTT,>7.48 µM
C1CNCCCN(CCCN2CCCNCCCNCCC2)CCCNC1,,518 µM
Cc1cn([C@H]2C[C@H](N=[N+]=[N-])[C@@H](CO)O2)c(=O)[nH]c1=O,MTT / absorbance,>100 µM
Cc1cn([C@H]2C=C[C@@H](COC(=O)CNC(=O)C(=O)/C=C(\O)c3cccn3Cc3ccc(F)cc3)O2)c(=O)[nH]c1=O,MTT,>10 µM
CC(C)[C@H](NC(=O)OCc1ccccc1)C(=O)N[C@@H](Cc1ccccc1)C(=O)C(F)(F)CCc1ccccn1,,>100 µM
Cc1cn([C@H]2C=C[C@@H](CO)O2)c(=O)[nH]c1=O,,79 µM
Nc1ncnc2c1ncn2CCOCP(=O)(O)O,,54 µM
Cc1c(CCC2CCCCC2)nc(SCC(=O)c2ccc(F)cc2)[nH]c1=O,MTT,7.3 µM
Cc1cn([C@H]2C[C@H](N=[N+]=[N-])[C@@H](CO)O2)c(=O)[nH]c1=O,,280.5 µM
OC[C@H]1O[C@@H](Oc2ccc(O)c3cccc(O)c23)[C@H](O)[C@@H](O)[C@@H]1O,,25 µg/mL
COc1cc2c(cc1OC)[C@H]1[C@H]3C(=CC[C@H]1OC2=O)CCN3C,MTT,12.8 µg/mL
CC(C)[C@H](NC(=O)OCc1ccccc1)C(=O)N[C@@H](Cc1ccccc1)C(=O)C(F)(F)CCc1ccccc1,,>100 µM
O=C(CCNC(=O)C(=O)/C=C(\O)c1cccn1Cc1ccc(F)cc1)OC[C@@H]1CC[C@H](n2ccc(=O)[nH]c2=O)O1,MTT,>10 µM
CCCCn1cc(C(=O)O)c(=O)c2cc(Br)c(Oc3ccnc(Nc4ccc(C#N)cc4)n3)cc21,MTT,10.74 µM
C1CCNCCCNCCCNCCCCNCCCNCCCNCCCCNCCCNCCCNCCCNCCCCNCCCNC1,,74.9 µM
CCc1c(CCC2CCCCC2)nc(SCC(=O)c2ccccc2)[nH]c1=O,MTT,241 µM
Nc1ncnc2c1ncn2[C@H]1C=C[C@@H](CO)O1,,49 µM
CC(C)(O)CCc1c(-c2ccc(O)cc2O)oc2c3c(cc(O)c2c1=O)OC(C)(C)C=C3,,>100 µg/mL
CCCCCCCCCCCCOC1OC(COS(=O)(=O)O)C(OS(=O)(=O)O)C(OC2OC(COS(=O)(=O)O)C(OS(=O)(=O)O)C(OC3OC(COS(=O)(=O)O)C(OS(=O)(=O)O)C(OC4OC(COS(=O)(=O)O)C(OS(=O)(=O)O)C(OC5OC(COS(=O)(=O)O)C(OS(=O)(=O)O)C(OS(=O)(=O)O)C5OS(=O)(=O)O)C4OS(=O)(=O)O)C3OS(=O)(=O)O)C2OS(=O)(=O)O)C1OS(=O)(=O)O,,>1000 µg/mL
N#Cc1ccc(Nc2nccc(Oc3cc4c(cc3Br)c(=O)c(C(=O)O)cn4C3CCCC3)n2)cc1,MTT,13.29 µM
CC(C)[C@H](NC(=O)N(C)Cc1ccccn1)C(=O)N[C@@H](Cc1ccccc1)C[C@H](O)[C@H](Cc1ccccc1)NC(=O)[C@@H](NC(=O)N(C)Cc1ccccn1)C(C)C,,>0.16 µM
C=CC(C)(C)c1cc2c(cc1O)O[C@H](c1cc(O)c(O)c(CC=C(C)C)c1CC=C(C)C)CC2,,9 µg/mL
O=C(CNC(=O)C(=O)/C=C(\O)c1cccn1Cc1ccc(F)cc1)OC[C@@H]1CC[C@H](n2ccc(=O)[nH]c2=O)O1,MTT,>10 µM
Nc1ncnc2c1ncn2[C@H]1CC[C@@H](CO)O1,,>250 µM
C=C(C)COCn1c(Cc2cc(C)cc(C)c2)c(CC)c(=O)[nH]c1=O,,>100 µM
CC(C)=CCc1cc(C(=O)CC(=O)c2cc3c(cc2O)OC(C)(C)C=C3)ccc1O,,8 µg/mL
Cc1cc(C#N)cc(C)c1Oc1nc(Nc2ccc(C#N)cc2)nc(N)c1Br,MTT,14.24 µM
O=c1[nH]cnc2c1ncn2C1CC[C@@H](CO)O1,MTT,≥529 µM
Cc1cn([C@H]2O[C@@H](CO[Si](C)(C)C(C)(C)C)C3(OS(=O)(=O)C=C3N)[C@@H]2O[Si](C)(C)C(C)(C)C)c(=O)[nH]c1=O,,7 µg/mL
C#Cc1ccc(Nc2nccc(Oc3c(C)cc(-c4cn(Cc5ccc([N+](=O)[O-])cc5)nn4)cc3C)n2)cc1,MTT,160 µM
CO[C@@H]1C=C[C@@]23c4cc5c(cc4CO[C@@]2(O)CN(C)[C@H]3C1)OCO5,MTT,7.5 µg/mL
C#Cc1ccc(Nc2nccc(Oc3c(C)cc(-c4cn(Cc5cccc([N+](=O)[O-])c5)nn4)cc3C)n2)cc1,MTT,101 µM
Cc1cn([C@H]2C[C@H](N=[N+]=[N-])[C@@H](COP(=O)(OCCSC(=O)C(C)(C)C)Oc3ccc(C[C@@H](N)C(=O)O)cc3)O2)c(=O)[nH]c1=O,,>100 µM
COc1ccc([C@@H]2COc3c(ccc4c3C=CC(C)(C)O4)C2)c(OC)c1,,>100 µg/mL
C1CNCCNCCCNCCNC1.O=S(=O)([O-])[O-].[O]=[V+2],MTT,>340 µM
CC(C)=CCOCn1c(Cc2cc(C)cc(C)c2)c(C(C)C)c(=O)[nH]c1=O,,>100 µM
C[C@@H]1O[C@@H](Oc2c(-c3ccc(O)c(O)c3)oc3cc(O)cc(O)c3c2=O)[C@H](O)[C@H](O)[C@H]1O,,>100 µg/mL
CC(C)[C@H](NC(=O)N(C)Cc1ccccn1)C(=O)N[C@@H](Cc1ccccc1)[C@@H](O)[C@H](O)[C@H](Cc1ccccc1)NC(=O)[C@@H](NC(=O)N(C)Cc1ccccn1)C(C)C,,>1.54 µM
Nc1nc2c(ncn2CCOCP(=O)(O)O)c(=O)[nH]1,,1.7 µM
CC(C)(C)n1cc(C(=O)O)c(=O)c2cc(Br)c(Oc3ccnc(Nc4ccc(C#N)cc4)n3)cc21,MTT,23.58 µM
C#Cc1ccc(Nc2nccc(Oc3c(C)cc(-c4cn(CC(=O)Nc5ccc(Br)cc5)nn4)cc3C)n2)cc1,MTT,19.78 µM
C1CCNCCCNCCCN(CCCN2CCCNCCCNCCCCNCCCNCCCCNCCCNCCC2)CCCNCCCNCCCCNCCCNC1,,83 µM
O=C(OC[C@H]1O[C@@H](Oc2ccc(O)c3cccc(O)c23)[C@H](O)[C@@H](O)[C@@H]1O)c1cc(O)c(O)c(O)c1,,25 µg/mL
CC(C)(C)n1cc(C(=O)O)c(=O)c2cc(I)c(Oc3ccnc(Nc4ccc(C#N)cc4)n3)cc21,MTT,13.4 µM

CCn is the concentration with n% toxicity to the cells. Blank or dashed fields: not listed here.